Results of unrelated studies side by side (data: NIAID ChemDB).

Common to all: toxicity to cultured cells; cell line: CEM; measure: CC50

CCn is the concentration with n% toxicity to the cells.

{"structure": "CCCN(C)C(=O)Oc1nsnc1-c1c(Cl)ccc(N)c1Cl", "value": "128 µM"}
{"structure": "O=C(NN1C(=O)C(Cl)C1c1ccccc1Cl)c1ccccc1O", "value": ">14.8 µM"}
{"structure": "C1CNCCNCCCN(CCCN2CCCNCCNCCCNCC2)CCNC1", "value": ">1865 µM"}
{"structure": "CCOCn1c(Cc2ccccc2)c(C(C)C)c(=O)[nH]c1=O", "value": ">100 µM"}
{"structure": "Cc1cn([C@H]2C[C@H](N=[N+]=[N-])[C@@H](CO)O2)c(=O)[nH]c1=O", "value": ">1000 µM"}
{"structure": "Nc1nc(=O)n([C@@H]2C[Se][C@H](CO)O2)cc1F", "value": ">100 µM"}
{"structure": "Cc1cn([C@@H]2O[C@H](CO[Si](C)(C)C(C)(C)C)[C@@]3(OS(=O)(=O)C=C3N)[C@H]2O[Si](C)(C)C(C)(C)C)c(=O)[nH]c1=O", "value": "16 µM"}
{"structure": "O=C(Nc1ccc(Cl)cc1)c1ccccc1SSc1ccccc1C(=O)Nc1ccc(Cl)cc1", "value": "8 µM"}
{"structure": "O=C(O)c1cn2c3c(c(N4CCN(c5ccccn5)CC4)c(F)cc3c1=O)OCC2CF", "value": "14 µg/mL"}
{"structure": "COc1cc(NC(=O)C23CC4CC(CC(C4)C2)C3)c(C(=O)NN)cc1OC", "value": "40.5 µM"}
{"structure": "O=c1[nH]cnc2c1ncn2[C@H]1O[C@@H](CO)C=C1F", "value": ">100 µM"}
{"structure": "O=C(Nc1ccccc1C(=O)N[C@@H](Cc1ccccc1)C[C@H](O)[C@H](Cc1ccccc1)NC(=O)c1ccno1)OCc1ccccn1", "value": ">2 µM"}
{"structure": "Nc1nc2c(ncn2[C@@H]2C=C[C@H](CO)O2)c(=O)[nH]1", "value": ">10 µM"}
{"structure": "O=C(NN1C(=O)C(Cl)C1c1cccc(O)c1)c1ccccc1O", "value": ">15 µM"}
{"structure": "Cc1ccc2nnc(NS(=O)(=O)c3cc(C)c(Cl)cc3S)n2n1", "value": ">200 µM"}
{"structure": "Cc1cn([C@H]2C[C@H](N=[N+]=[N-])[C@@H](CO)O2)c(=O)[nH]c1=O", "value": ">40 µg/mL"}
{"structure": "Nc1nc(N)c(Cl)c(OCCOCP(=O)(O)O)n1", "value": "≥100 µg/mL"}
{"structure": "CC(C)(C)OC(=O)N[C@@H](Cc1ccccc1)C[C@H](O)[C@H](Cc1ccccc1)NC(=O)c1ccccc1NC(=O)OCc1ccccn1", "value": ">0.49 µM"}
{"structure": "Cc1cn([C@@H]2O[C@H](CO[Si](C)(C)C(C)(C)C)C3(OS(=O)(=O)C=C3N)[C@H]2O[Si](C)(C)C(C)(C)C)c(=O)n(C)c1=O", "value": "≥100 µg/mL"}
{"structure": "CCc1c(Cc2cc(C)cc(C)c2)n(COC/C=C/c2ccc(OP(=O)(OCCSC(=O)C(C)(C)C)OC[C@@H]3C=C[C@H](n4cc(C)c(=O)[nH]c4=O)O3)cc2)c(=O)[nH]c1=O", "value": "32 µM"}
{"structure": "O=C(N/N=C/c1cccs1)c1cc(Cl)ccc1NC(=O)C12CC3CC(CC(C3)C1)C2", "value": ">200 µM"}
{"structure": "Cc1cn(COC(CN)CO[Si](C)(C)C(C)(C)C(C)C)c(=O)[nH]c1=O", "value": "0.05–100 µM"}
{"structure": "Nc1nc2c(ncn2[C@@H]2CC[C@H](CO)O2)c(=O)[nH]1", "value": ">100 µM"}
{"structure": "O=c1ccn([C@@H]2O[C@H](CO)C[C@@H]2F)c(=O)[nH]1", "value": "57 µg/mL"}
{"structure": "Nc1ccn([C@H]2CO[C@@H](CO)S2)c(=O)n1", "value": ">500 µM"}
{"structure": "NNC(=O)c1cc(Br)ccc1NC(=O)C12CC3CC(CC(C3)C1)C2", "value": "15.8 µM"}
{"structure": "Nc1ncn([C@@H]2O[C@H](CO)[C@@H](O)[C@H]2O)c(=O)n1", "value": ">1 µM"}
{"structure": "COc1ccc(/C=C2/C(=O)N(C(=O)c3ccccc3O)N=C2C)cc1", "value": "0.053 µM"}
{"structure": "Cc1cn([C@@H]2O[C@H](CO)C[C@@H]2F)c(=O)[nH]c1=O", "value": "8 µg/mL"}
{"structure": "COc1ccc(COCC(COCc2ccccc2)OCSc2ccccc2)cc1", "value": "0.05–100 µM"}
{"structure": "O=C(Nc1ccc([N+](=O)[O-])cc1)c1ccccc1SSc1ccccc1C(=O)Nc1ccc([N+](=O)[O-])cc1", "value": "14 µM"}
{"structure": "COc1cc(/C=C2/C(=O)N(C(=O)c3ccccc3O)N=C2C)cc(OC)c1OC", "value": "0.24 µM"}
{"structure": "O=C(Nc1ccccc1C(=O)N[C@@H](Cc1ccccc1)[C@@H](O)[C@@H](O)[C@H](Cc1ccccc1)NC(=O)c1cccc(O)c1)OCc1ccccn1", "value": ">0.9 µM"}
{"structure": "CN(C)[C@@H]1C(=O)C(C(N)=O)=C(O)[C@@]2(O)C(=O)C3=C(O)c4c(O)cccc4[C@@](C)(O)[C@H]3C[C@@H]12", "value": ">6.6 µg/mL"}
{"structure": "O=S(=O)(Nc1nnc2n1-c1ccccc1CC2)c1ccc(Cl)cc1S", "value": "91.3 µM"}
{"structure": "C1CNCCNCCCN[C@H]([C@@H]2CNCCCNCCNCCCN2)CNC1", "value": ">724 µM"}
{"structure": "O=C(Nc1cc(C(F)(F)F)cc(C(F)(F)F)c1)c1ccccc1SSc1ccccc1C(=O)Nc1cc(C(F)(F)F)cc(C(F)(F)F)c1", "value": "3.6 µM"}
{"structure": "Nc1nc2c(ncn2C2CC=C[C@H]2CO)c(=O)[nH]1", "value": ">100 µM"}
{"structure": "Cc1nc(C(=O)N[C@@H](Cc2ccccc2)[C@@H](O)C[C@H](Cc2ccccc2)NC(=O)c2ccccc2NC(=O)OCc2ccccn2)cs1", "value": ">10 µM"}
{"structure": "Cc1cc(S(=O)(=O)Nc2nc(N)nc(N(C)C)n2)c(SC(C(=O)O)c2ccccc2)cc1Cl", "value": ">200 µM"}
{"structure": "CSc1c(C)c(SC)n2ccncc12", "value": "109 µM"}
{"structure": "Cc1cccc(NC(=O)c2ccccc2SSc2ccccc2C(=O)Nc2cccc(C)c2)c1", "value": "40 µM"}
{"structure": "Nc1ccc(C(=O)N[C@@H](Cc2ccccc2)[C@@H](O)C[C@H](Cc2ccccc2)NC(=O)c2ccccc2NC(=O)OCc2ccccn2)cc1", "value": ">0.5 µM"}
{"structure": "Nc1ccn([C@H]2CC[C@@H](CO)O2)c(=O)n1", "value": ">1 µM"}
{"structure": "O=C(Nc1ccccc1C(=O)N[C@@H](Cc1ccccc1)[C@@H](O)C[C@H](Cc1ccccc1)NC(=O)c1cccc(O)c1)OCc1ccccn1", "value": ">10 µM"}
{"structure": "O=c1[nH]cnc2c1ncn2[C@@H]1O[C@@H](CO)C=C1F", "value": ">100 µM"}
{"structure": "Cc1cc(S(=O)(=O)Nc2nnc3c4scc(C)c4ncn23)c(S)cc1Cl", "value": "126 µM"}
{"structure": "CC(C)=CCN1Cc2cccc3[nH]c(=S)n(c23)C[C@@H]1C", "value": ">174 µM"}
{"structure": "Cc1cc(SC2=C(O)C[C@@](CCc3ccc(O)cc3)(C(C)C)OC2=O)c(C(C)(C)C)cc1N", "value": "211 µM"}
{"structure": "O=c1[nH]c(=O)n([C@H]2C[C@H](O)[C@@H](CO)O2)cc1C12B3B4B5B6B(B3B1B42)B1B5C61", "value": ">100 µM"}
{"structure": "Cc1cn([C@@H]2O[C@H](CO[Si](C)(C)C(C)(C)C)[C@@]3(NS(=O)(=O)C=C3N)[C@H]2O[Si](C)(C)C(C)(C)C)c(=O)n(C(=O)OC(C)(C)C)c1=O", "value": "21.2 µM"}
{"structure": "Cc1cn([C@H]2C[C@H](N=[N+]=[N-])[C@@H](CO)O2)c(=O)[nH]c1=O", "value": ">100 µM"}
{"structure": "Nc1ccn([C@@H]2O[C@H](CO)C[C@@H]2F)c(=O)n1", "value": ">23 µg/mL"}
{"structure": "Cc1ccc(/C=N/NC(=O)c2cc(Cl)ccc2NC(=O)C23CC4CC(CC(C4)C2)C3)o1", "value": ">200 µM"}
{"structure": "COC(=O)CSc1cc(Cl)c(C)cc1S(=O)(=O)Nc1n[nH]c(N)n1", "value": ">200 µM"}
{"structure": "CN(C)c1ccc(O)c2c1C[C@H]1C[C@H]3[C@H](N(C)C)C(=O)C(C(N)=O)=C(O)[C@@]3(O)C(=O)C1=C2O", "value": ">2.8 µg/mL"}
{"structure": "CCc1cc(NCc2nc3c(Cl)ccc(Cl)c3o2)c(=O)[nH]c1C", "value": ">60 µM"}
{"structure": "NS(=O)(=O)c1ccc(NC(=O)c2cccc(SSc3cccc(C(=O)Nc4ccc(S(N)(=O)=O)cc4)c3)c2)cc1", "value": ">100 µM"}
{"structure": "COc1cc(C2C(Cl)C(=O)N2NC(=O)c2ccccc2O)ccc1O", "value": ">27.5 µM"}
{"structure": "Nc1nc(N)c(Br)c(OCCOCP(=O)(O)O)n1", "value": ">100 µg/mL"}
{"structure": "O=S(=O)(Nc1nnc2n1-c1ccccc1CC2)c1ccc(F)cc1S", "value": "109.3 µM"}
{"structure": "CCc1c(Cc2cc(C)cc(C)c2)n(COC/C=C/c2ccc(O)cc2)c(=O)[nH]c1=O", "value": "32 µM"}
{"structure": "Cc1cc(S(=O)(=O)Nc2n[nH]c(-c3ccc(Cl)cn3)n2)c(S)cc1Cl", "value": "116.7 µM"}
{"structure": "Cc1cn([C@@H]2O[C@H](CO[Si](C)(C)C(C)(C)C)[C@]3(C(N)=CS(=O)(=O)N3C)[C@H]2O[Si](C)(C)C(C)(C)C)c(=O)[nH]c1=O", "value": "21.6 µM"}
{"structure": "Cc1ccc(NC(=O)C23CC4CC(CC(C4)C2)C3)c(C(=O)N/N=C/c2ccc(C)o2)c1", "value": ">200 µM"}
{"structure": "Nc1cc(OCCOCP(=O)(O)O)nc(N)n1", "value": "3.9 µg/mL"}
{"structure": "Cc1cn([C@H]2C[C@H](N=[N+]=[N-])[C@@H](COP(=O)(OCCC#N)OC3CCC4(C)C(=CCC5C4CCC4(C)C(C(C)CCCC(C)C)CCC54)C3)O2)c(=O)[nH]c1=O", "value": ">200 µM"}
{"structure": "Nc1nc(NC2CC2)c2ncn(C3CC=C[C@H]3CO)c2n1", "value": ">100 µM"}
{"structure": "Nc1ccn([C@@H]2CS[C@H](CO)O2)c(=O)n1", "value": "10.73 ± 0.22 µM"}
{"structure": "CCNC(=O)c1cc(C)ccc1NC(=O)C12CC3CC(CC(C3)C1)C2", "value": ">200 µM"}
{"structure": "Nc1nc(=O)n([C@H]2CO[C@@H](CO)S2)cc1F", "value": ">500 µM"}
{"structure": "CNC(=O)c1cc(S(=O)(=O)Nc2nncn2CC(C)C)c(S)cc1Cl", "value": ">200 µM"}
{"structure": "CN(C)[C@@H]1C(=O)C(C(=O)NCNC(CCCCN)C(=O)O)=C(O)[C@@]2(O)C(=O)C3=C(O)c4c(O)cccc4[C@@](C)(O)C3C[C@@H]12", "value": "30 µg/mL"}
{"structure": "CC(C)Nc1cccnc1N1CCN(C(=O)c2cc3cc(NS(C)(=O)=O)ccc3[nH]2)CC1", "value": "≥20 µg/mL"}
{"structure": "Cc1cn([C@@H]2O[C@H](CO[Si](C)(C)C(C)(C)C)[C@]3(C(N)=CS(=O)(=O)N3C)[C@H]2O[Si](C)(C)C(C)(C)C)c(=O)n(C(=O)OC(C)(C)C)c1=O", "value": "20.6 µM"}
{"structure": "c1ccc(C2OCc3nc4ccccc4n32)cc1", "value": "13 µM"}

For reference, 7 entries again:

structure	value
O=C(N/N=C/c1cccs1)c1cc(Cl)ccc1NC(=O)C12CC3CC(CC(C3)C1)C2	>200 µM
CN(C)[C@@H]1C(=O)C(C(=O)NCNC(CCCCN)C(=O)O)=C(O)[C@@]2(O)C(=O)C3=C(O)c4c(O)cccc4[C@@](C)(O)C3C[C@@H]12	30 µg/mL
CCc1c(Cc2cc(C)cc(C)c2)n(COC/C=C/c2ccc(O)cc2)c(=O)[nH]c1=O	32 µM
CSc1c(C)c(SC)n2ccncc12	109 µM
Cc1cc(S(=O)(=O)Nc2nnc3c4scc(C)c4ncn23)c(S)cc1Cl	126 µM
O=C(O)c1cn2c3c(c(N4CCN(c5ccccn5)CC4)c(F)cc3c1=O)OCC2CF	14 µg/mL
Nc1nc(NC2CC2)c2ncn(C3CC=C[C@H]3CO)c2n1	>100 µM

Rows are shuffled and stem from different studies. a–b is a range or a potency band.